Compound potency records, mixed from different reports. Data source: NIAID ChemDB in PubChem.

All rows: growth or infection tests; species: HIV-1; method: p24; measure: EC50

ECn is the concentration giving n% inhibition of infection, replication or growth. Lines come from different laboratories, so protocols vary.

{"structure": "CC(C)(C)NC(=O)[C@@H]1CN(S(C)(=O)=O)CCN1C[C@@H](O)C[C@@H](Cc1ccccc1)C(=O)N[C@H]1c2ccccc2C[C@H]1O", "strain or isolate": "IIIB", "cells": "MT-4", "result": "<0.4 µM"}
{"structure": "CC(=O)c1ccc(C)cc1NC(C(N)=O)c1c(Cl)cccc1Cl", "strain or isolate": "clinical isolate A018C AZT-resistant", "cells": "MT-4", "result": "0.024 µM"}
{"structure": "C[C@@H]1O[C@@H]2OCCC[C@@H]2[C@@H]1OC(=O)N[C@@H](Cc1ccccc1)[C@H](O)CN1C[C@H]2CCCC[C@H]2C[C@H]1C(=O)NC(C)(C)C", "strain or isolate": "PR-L63P ERS104pre", "cells": "PBMC", "result": "0.024 µM"}
{"structure": "CC(C)(C)NC(=O)[C@@H]1CN(Cc2cccnc2)CCN1C[C@@H](O)C[C@@H](Cc1ccccc1)C(=O)N[C@H]1c2ccccc2C[C@H]1O", "strain or isolate": "ESP2-0", "cells": "PBMC", "result": "0.0151 µM"}
{"structure": "Cc1cn([C@H]2C[C@H](N=[N+]=[N-])[C@@H](CO)O2)c(=O)[nH]c1=O", "strain or isolate": "BaL", "cells": "Macrophage + Monocytes/macrophages", "result": "0.002 µM"}
{"structure": "CCNc1cccnc1N1CCN(C(=O)c2cc3cc(OC)ccc3[nH]2)CC1", "mutations": "RT-V106A", "strain or isolate": "BaL", "cells": "Macrophage + Monocytes/macrophages", "result": ">25.6 µM"}
{"structure": "CCCc1cc(=O)oc2c3c(c4c(c12)OC(C)(C)C=C4)O[C@@H](C)[C@H](C)[C@@H]3O", "strain or isolate": "ADA", "cells": "MM + M/M", "result": "0.05 µM"}
{"structure": "NC(=O)c1ncn([C@@H]2O[C@H](CO)[C@@H](O)[C@H]2O)n1", "strain or isolate": "LAV", "cells": "C3", "result": "50 µM"}
{"structure": "O=C(NCc1ccc(F)cc1)c1nc(N2CCCCS2(=O)=O)c2cccnc2c1O", "strain or isolate": "IIIB", "cells": "MT-4", "result": "<0.1 µM"}
{"structure": "CC(C)(C)NC(=O)[C@@H]1CN(Cc2cccnc2)CCN1C[C@@H](O)C[C@@H](Cc1ccccc1)C(=O)N[C@H]1c2ccccc2C[C@H]1O", "strain or isolate": "IIIB", "cells": "CEM + CEM-SS", "result": "0.007 µM"}
{"structure": "CC(=O)OC[C@]12[C@H](OC(C)=O)[C@H](OC(C)=O)[C@@H]3[C@@H](OC(C)=O)[C@@]14O[C@@]3(C)COC(=O)c1cccnc1CCC(C)C(=O)O[C@@H]([C@H](OC(=O)c1ccoc1)[C@@H]2OC(C)=O)C4(C)O", "strain or isolate": "IIIB", "cells": "H9", "result": ">100 µg/mL"}
{"structure": "CCCN(C)C(=O)Oc1nsnc1-c1c(Cl)ccc(N)c1Cl", "strain or isolate": "clinical isolate A012B AZT-sensitive", "cells": "MT-4", "result": "0.0038 µM"}
{"structure": "CC(=O)OC[C@]12[C@H](OC(C)=O)[C@H](OC(C)=O)[C@@H]3[C@@H](OC(C)=O)[C@@]14O[C@@]3(C)COC(=O)c1cccnc1CCC(C)(O)C(=O)O[C@@H]([C@H](OC(=O)c1ccoc1)[C@@H]2OC(C)=O)C4(C)O", "strain or isolate": "IIIB", "cells": "H9", "result": "<0.1 µg/mL"}
{"structure": "Nc1ncnc2c1ncn2[C@H]1CC[C@@H](CO)O1", "strain or isolate": "LAV", "cells": "C3", "result": "19 µM"}
{"structure": "O=c1[nH]cnc2c1ncn2[C@H]1CC[C@@H](CO)O1", "strain or isolate": "BaL", "cells": "Macrophage + Monocytes/macrophages", "result": "0.12 µM"}
{"structure": "Cc1cn([C@H]2C[C@H](N=[N+]=[N-])[C@@H](CO)O2)c(=O)[nH]c1=O", "strain or isolate": "8618 CLADE B CLADE B", "cells": "PBMC", "result": "0.017 µM"}
{"structure": "C[C@H]1O[C@@H]2OCCC[C@@H]2[C@@H]1OC(=O)N[C@@H](Cc1ccccc1)[C@H](O)CN1C[C@H]2CCCC[C@H]2C[C@H]1C(=O)NC(C)(C)C", "mutations": "PR-L10I K14R R41K M46I I54V L63P A71V V82A L90M I93L", "strain or isolate": "TM", "cells": "PBMC", "result": ">1 µM"}
{"structure": "Nc1nc2c(ncn2[C@H]2CC[C@@H](CO)O2)c(=O)[nH]1", "strain or isolate": "LAV", "cells": "H9", "result": ">1 µM"}
{"structure": "Cc1ccnc2c1NC(=O)c1cccnc1N2C1CC1", "strain or isolate": "BaL", "cells": "Macrophage + Monocytes/macrophages", "result": "0.07 µM"}
{"structure": "Nc1ncnc2c1ncn2[C@H]1CC[C@@H](CO)O1", "strain or isolate": "LAV", "cells": "H9", "result": ">1 µM"}
{"structure": "Cc1ccnc2c1NC(=O)c1cccnc1N2C1CC1", "strain or isolate": "BaL", "cells": "MM + M/M", "result": "0.4 µM"}
{"structure": "CC(C)CN(C[C@@H](O)[C@H](Cc1ccccc1)NC(=O)O[C@H]1[C@H]2CCCO[C@H]2O[C@@H]1C)S(=O)(=O)c1ccc(N)cc1", "mutations": "PR-L10I K43T M46I I54V L63P A71V V82A L90M Q92K", "strain or isolate": "MM", "cells": "PBMC", "result": "0.34 µM"}
{"structure": "CC(C)(C)NC(=O)[C@@H]1C[C@@H]2CCCC[C@@H]2CN1C[C@@H](O)[C@H](Cc1ccccc1)NC(=O)[C@H](CC(N)=O)NC(=O)c1ccc2ccccc2n1", "strain or isolate": "BaL", "cells": "Macrophage + Monocytes/macrophages", "result": "0.02 µM"}
{"structure": "CC(=O)O[C@@H]1[C@@H]2[C@@H](OC(C)=O)[C@@]34O[C@@]2(C)COC(=O)c2cccnc2[C@@H](C)[C@H](C)C(=O)O[C@@H]([C@H](OC(C)=O)[C@H](OC(C)=O)[C@@]3(COC(=O)c2ccoc2)[C@@H]1OC(C)=O)C4(C)O", "strain or isolate": "IIIB", "cells": "H9", "result": "0.1 µg/mL"}
{"structure": "O=C(NCc1ccc(F)cc1)c1nc(N2CCCCS2(=O)=O)c2cccnc2c1O", "strain or isolate": "NL4-3", "result": "0.004 µM"}
{"structure": "Cc1cn([C@H]2C[C@H](N=[N+]=[N-])[C@@H](CO)O2)c(=O)[nH]c1=O", "strain or isolate": "ADA", "cells": "MM + M/M", "result": "0.01 µM"}
{"structure": "Cc1cn([C@H]2C[C@H](N=[N+]=[N-])[C@@H](CO)O2)c(=O)[nH]c1=O", "strain or isolate": "CLADE B", "cells": "PBL", "result": "0.006 µM"}
{"structure": "Cc1cn([C@H]2C[C@H](N=[N+]=[N-])[C@@H](CO)O2)c(=O)[nH]c1=O", "mutations": "RT-V106A", "strain or isolate": "BaL", "cells": "Macrophage + Monocytes/macrophages", "result": "0.06 µM"}
{"structure": "CC(C)(C)NC(=O)[C@@H]1C[C@@H]2CCCC[C@@H]2CN1C[C@@H](O)[C@H](Cc1ccccc1)NC(=O)[C@H](CC(N)=O)NC(=O)c1ccc2ccccc2n1", "strain or isolate": "NL4-3", "cells": "MT-4", "result": "0.006 µM"}
{"structure": "CCc1cc(NCc2nc3c(Cl)ccc(Cl)c3o2)c(=O)[nH]c1C", "strain or isolate": "MN", "cells": "MT-4", "result": "<0.1 µM"}
{"structure": "Nc1nc2c(ncn2[C@H]2C=C[C@@H](CO)C2)c(=O)[nH]1", "strain or isolate": "LAV", "cells": "C3", "result": "0.37 µM"}
{"structure": "CCCc1cc(=O)oc2c3c(c4c(c12)OC(C)(C)C=C4)O[C@H](C)[C@@H](C)[C@@H]3O", "strain or isolate": "BaL", "cells": "MM + M/M", "result": "0.05 µM"}
{"structure": "CCc1cc(NCc2nc3c(C)ccc(C)c3o2)c(=O)[nH]c1C", "strain or isolate": "IIIB", "cells": "MT-4", "result": "<0.025 µM"}
{"structure": "O=C(CO)N[C@@H]([C@@H](O)[C@H](O)[C@H](O)CO)[C@@H](O)C(=O)C(=O)O", "strain or isolate": "MN", "cells": "PBMC", "result": "<6.2 µg/mL"}

Repeating the final 4 entries:

{"structure": "Nc1nc2c(ncn2[C@H]2C=C[C@@H](CO)C2)c(=O)[nH]1", "strain or isolate": "LAV", "cells": "C3", "result": "0.37 µM"}
{"structure": "CCCc1cc(=O)oc2c3c(c4c(c12)OC(C)(C)C=C4)O[C@H](C)[C@@H](C)[C@@H]3O", "strain or isolate": "BaL", "cells": "MM + M/M", "result": "0.05 µM"}
{"structure": "CCc1cc(NCc2nc3c(C)ccc(C)c3o2)c(=O)[nH]c1C", "strain or isolate": "IIIB", "cells": "MT-4", "result": "<0.025 µM"}
{"structure": "O=C(CO)N[C@@H]([C@@H](O)[C@H](O)[C@H](O)CO)[C@@H](O)C(=O)C(=O)O", "strain or isolate": "MN", "cells": "PBMC", "result": "<6.2 µg/mL"}